In US20020173475A1 (priority 2001, published 2002):

Tested on: translation of the CAT reporter protein (p2CAT RNA) in HeLa cell extract
Settings: for ability to inhibit translation: peptides added at 20, 40 and 60 μM, no concentration stated for the result; for inhibition of translation of the CAT reporter protein: HeLa cell extract

Sequence: AALEAKICHQIEQQQGDQ
- ability to inhibit translation: inhibitory activity was also lost

Sequence: AALEAKICHQIEYQFGDF
- inhibition of translation of the CAT reporter protein (peptide at 60 μM): inhibited
- ability to inhibit translation: diminished

Sequence: AALEAKICHQIEYYFGDQ
- inhibition of translation of the CAT reporter protein (peptide at 40 and 60 μM): inhibited
- ability to inhibit translation: diminished

Sequence: AALEAKICHQIEYYQGDF
- ability to inhibit translation: diminished

Sequence: AALEAQICQQIEYYFGDF
- inhibition of translation of the CAT reporter protein (peptide at 40 and 60 μM): effective at inhibiting translation

Sequence: AALQAKICHQIQYYFGQF
- inhibition of translation of the CAT reporter protein (peptide at 40 and 60 μM): lost the ability to inhibit translation

Sequence: QQQEAKICHQIEYYFGDF
- inhibition of translation of the CAT reporter protein (peptide at 40 μM): slightly inhibitory
- inhibition of translation of the CAT reporter protein (peptide at 60 μM): inhibitory

Where two headings read alike, the source gives them in different places.
